# Tested on: Nc1ncnc2c1ncn2[C@@H]1O[C@H](COP(=O)(O)OP(=O)(O)OP(=O)(O)O)[C@@H](O)[C@H]1O
# Experiment: purified protein
# Conditions: phosphate donor, acceptor murine Myl12a, 10 mM MnCl2, 25 mM Tris-HCl pH 7.5, 1 mM DTT, 30 °C, 30 min
substance,measurement,value
SteC FL (full-length SteC) (Salmonella enterica subsp. enterica serovar Typhimurium str. 14028S),Km,1.56 µM

# — article PMC11021425, “Salmonella manipulates macrophage migration via SteC-mediated myosin light chain activation to penetrate the gut-vascular barrier” (The EMBO Journal, 2024)
